This is a selection; strong and weak results do not stand in their true shares. Measured potencies and affinities stand elsewhere. Activity calls are given as the source filed them. How the calls were made is not given here.
assay: mammalian cell cytotoxicity, dose response, cytotoxicity control (AID 434958); conditions: cytotoxicity counter-screen; at 40 µM (top of the series);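 further: cells exposed to compound for 72 hours before readout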

For `CCOC(=O)Nc1ccc([As](=O)(O)O)c(O)c1`, which viability is on record?
The viability was inactive: 102%.

Which viability does the source give for `O=[As](O)(c1ccc(O)cc1)c1ccccc1O` here?
The viability was inactive: 104%.

Which viability does the source give for `Nc1ccc([As](=O)(O)c2ccc([N+](=O)[O-])cc2)cc1` here?
Its viability is inactive: 99.3%.

Which viability does the source give for `Nc1ccc([As](=O)(O)c2ccc(N)cc2)cc1` here?
Its viability is inactive: 94.7%.
